From ChEMBL document CHEMBL4425139, “Discovery, characterization, and lead optimization of 7-azaindole non-nucleoside HIV-1 reverse transcriptase inhibitors” (Bioorg Med Chem Lett, 2016)

Tests used:
[1] = system: Human immunodeficiency virus type 1 reverse transcriptase (Human immunodeficiency virus 1), Q72547 [K103N]; assay: Inhibition of HIV1 RT K103N mutant using 17-mer DNA/Alexa Fluor 488 5'-end labeled DNA/Alexa Fluor 555-aha-dUTP as primer/template/substrate preincubated for 10 mins followed substarte addition measured after 30 mins by FRET assay
[2] = system: Human immunodeficiency virus type 1 reverse transcriptase (Human immunodeficiency virus 1), Q72547 [V108I]; assay: Inhibition of HIV1 RT V108I mutant using 17-mer DNA/Alexa Fluor 488 5'-end labeled DNA/Alexa Fluor 555-aha-dUTP as primer/template/substrate preincubated for 10 mins followed substarte addition measured after 30 mins by FRET assay
[3] = system: Human immunodeficiency virus type 1 reverse transcriptase (Human immunodeficiency virus 1), Q72547 [E138K]; assay: Inhibition of HIV1 RT E138K using 17-mer DNA/Alexa Fluor 488 5'-end labeled DNA/Alexa Fluor 555-aha-dUTP as primer/template/substrate preincubated for 10 mins followed substarte addition measured after 30 mins by FRET assay

Measured: inhibition

CC1(C)CC(=O)c2c(nc3c(c(C#N)cn3Cc3ccccc3)c2-c2c(F)cccc2F)C1
inactive: [1] | [2] | [3]

Calls of active or inactive are those of the source.
